# Assay results taken from paper PMC6492180, “Cytome micronucleus assays with a metabolically competent human derived liver cell line (Huh6): A promising approach for routine testing of chemicals?” (Environmental and Molecular Mutagenesis, 2018).
# System: Huh6 cells
substance,measurement,value
Aflatoxin B1 [AFB1],CBPI,1.9 ± 0.1
